The source of these data is paper PMC5339220.

The exact form of at least one protein or probe is not confirmed.

This data set deals with CcpA (UniProt A0A0H2ZQ65). As to the kind of experiment: EMSA. The conditions noted are these: EMSA: 1x LightShift binding buffer, 1 ug poly(dI-dC), 2.5% glycerol, 0.05% NP-40, 5 mM Mn2+, 5 mM Zn2+, 2-4 ug protein, 1 ng probe, 20 ul, 37 C, 30 min; pH not stated; recombinant protein; label: 5' biotin (Pcps F strand); probe letters rebuilt from the primers and the genome.

For “TACACATCTGCTTCTAAAATATTGTTAGAAAACGATTTGACTGTCCTGATCAATTTGTCATGTTCTTATTTCATTTTACTATATTTTTGGTTCGCGGGAAGTCTACTAAGATACTTAAAGATGCAGATAGTGAAAAAAGGTGTAGACATTACCGTAAAAAAGTGATATAATCGTAAGATGTTCAATGTATAGGTGTTAATCATGAGTAGACGTTTTAA (double strand) [C2 probe (cps promoter)]”, the binding result was “binds”.
